## Mutational scan of HIV-1 Vif (1203) in cells with APOBEC3G

Reference: Langley et al. 2025, preprint, doi:10.1101/2025.10.20.683452.

Protein: Vif of HIV-1 1203 (a subtype B primary isolate). Residues 12-115 were scanned and are shown below; the first letter is residue 12.
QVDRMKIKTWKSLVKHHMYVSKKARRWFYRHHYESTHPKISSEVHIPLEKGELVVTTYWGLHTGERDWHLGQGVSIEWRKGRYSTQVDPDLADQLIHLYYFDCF

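A pool of vif mutants was passaged twice, 72 h each, on SupT1 cells that express APOBEC3G. Each of three replicates was sequenced after round two and set against the merged round-one pool.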

Scale: log2 enrichment, wild type = 0; negative values mean that the variant was depleted.
Each entry names the wild-type residue, its position and the residue put in its place.
The median of three replicates is given, with the replicates in brackets.
Input reads are the counts in the merged round-one pool, before selection.

| substitution | input reads | median log2 enrichment |
|---|---|---|
| H28E | 32 | 0.30 (0.30 5.04 -0.23) |
| G71A | 237 | -1.95 (-1.95 -2.22 -1.81) |
| E63L | 496 | -1.69 (-1.69 -1.84 1.86) |
| H42G | 1025 | -2.14 (-2.28 -0.39 -2.14) |
| G84Q | 150 | -1.72 (-1.72 -2.50 0.79) |
| K17E | 849 | 0.56 (0.81 0.56 0.46) |
| H42T | 2332 | -1.49 (-2.03 -0.70 -1.49) |
| H43T | 78 | 3.16 (4.25 -0.20 3.16) |
| K33G | 186 | -2.03 (-2.03 -3.62 -1.31) |
| T68R | 185 | -0.98 (-2.92 -0.98 -0.91) |
| I107A | 147 | -1.32 (-1.71 1.64 -1.32) |
| V55S | 209 | -1.89 (-2.81 -1.89 -1.10) |
| K33N | 24 | 0.18 (0.51 0.15 0.18) |
| S46A | 305 | -1.74 (2.47 -2.13 -1.74) |
| Y44F | 23 | -0.31 (-0.40 5.31 -0.31) |
| E76T | 212 | 0.83 (1.15 0.62 0.83) |
| L59F | 258 | -2.26 (-2.26 -2.06 -2.40) |
| A35D | 42 | -0.09 (-0.09 -0.36 1.78) |
| K17G | 375 | -1.46 (1.71 -1.79 -1.46) |
| D14F | 60 | -4.34 (-4.48 -4.34 -1.62) |
| Y111A | 170 | -1.54 (-1.76 1.51 -1.54) |
| T68E | 34 | 0.04 (0.04 -0.70 4.70) |
| D78Y | 51 | 0.91 (2.71 -0.23 0.91) |
| V85D | 21 | -2.85 (-3.02 -2.85 -2.37) |
| S23I | 600 | -1.88 (-1.88 -1.98 0.02) |
| V66D | 57 | -4.28 (-4.45 -4.28 -3.89) |
| Q83P | 176 | -2.42 (-4.47 -2.42 -1.61) |
| L102T | 31 | -3.37 (-3.56 -3.37 -0.68) |
| T74V | 152 | -2.46 (-3.49 -2.46 -2.42) |
| T47P | 65 | -4.06 (-1.16 -4.45 -4.06) |
| R36W | 38 | 2.04 (2.31 0.70 2.04) |
| L72F | 1199 | -1.93 (-1.93 -2.51 0.01) |
| R36S | 35 | 0.66 (-1.44 0.66 0.70) |
| V98G | 25 | -3.11 (-3.28 -3.11 -2.72) |
| V66T | 340 | -1.81 (-1.80 -2.46 -1.81) |
| K22H | 261 | -2.76 (-6.63 -2.76 -2.15) |
| F112E | 734 | -1.55 (0.85 -1.90 -1.55) |
| I18P | 2849 | -1.88 (-1.88 -1.99 -0.11) |
| L64T | 141 | -2.00 (-1.64 -3.24 -2.00) |
| H108F | 165 | -1.48 (-1.43 -1.88 -1.48) |
| V55F | 317 | -2.35 (-2.62 -2.35 -1.95) |
| F112D | 27 | 4.13 (0.33 4.13 6.80) |
| Y30I | 45 | -0.37 (-0.37 -0.47 4.09) |
| T74K | 298 | -2.88 (-2.88 -3.14 -1.34) |
| T67W | 231 | -1.64 (-2.19 -1.64 -0.76) |
| D99E | 34 | 1.07 (3.39 -0.14 1.07) |
| L24C | 193 | -1.24 (-0.52 -2.31 -1.24) |
| F112N | 197 | -2.82 (-2.52 -4.48 -2.82) |
| A103N | 354 | -2.27 (-1.78 -2.39 -2.27) |
| G75R | 74 | 3.47 (-0.89 3.76 3.47) |
| L24G | 406 | -0.23 (1.67 -2.84 -0.23) |
| V66S | 208 | -1.28 (-2.84 -1.28 0.09) |
| L102I | 75 | 1.11 (1.11 2.95 -2.68) |
| W89C | 909 | -1.58 (-1.58 0.75 -2.08) |
| A103T | 214 | -2.73 (-2.89 -2.73 -2.09) |
| G75T | 235 | -3.93 (-4.87 -3.93 -2.73) |
| V31K | 343 | -0.28 (-1.35 0.18 -0.28) |
| Y44C | 34 | -0.59 (-0.59 5.04 -1.60) |
| Q105Y | 1092 | -2.59 (-1.76 -2.59 -2.85) |
| S52Y | 108 | -1.62 (-1.89 1.81 -1.62) |
| M29R | 231 | -2.53 (-2.53 -2.36 -2.69) |
| G92D | 195 | -2.99 (-3.20 -2.12 -2.99) |
| T74P | 224 | -1.54 (-2.92 -1.54 2.14) |
| S95I | 185 | -1.44 (-1.44 -2.79 1.84) |
| S95Q | 539 | 0.30 (-1.84 0.39 0.30) |
| H43D | 58 | 3.74 (0.24 4.29 3.74) |
| Y30S | 335 | -1.89 (-2.56 -1.69 -1.89) |
| F39N | 29 | 0.19 (0.19 -1.00 4.33) |
| G82R | 190 | -2.14 (-3.35 3.21 -2.14) |
| D101E | 32 | -0.21 (-0.07 -0.86 -0.21) |
| L64W | 34 | -1.95 (-3.70 -1.95 2.70) |
| Y94D | 818 | -3.22 (-3.32 -3.22 -2.58) |
| D104P | 18 | -2.23 (-1.19 -2.63 -2.23) |
| K33D | 55 | 3.03 (3.08 -2.61 3.03) |
| Y30H | 147 | -2.82 (-2.60 -2.82 -2.91) |
| Y30N | 164 | -2.33 (-3.60 -2.33 -1.48) |
| F39Q | 27 | 0.00 (-1.09 5.21 0.00) |

Excerpt, the final 9 entries:

For G82R (input reads 190) the result was -2.14 (-3.35 3.21 -2.14).
For D101E (input reads 32) the result was -0.21 (-0.07 -0.86 -0.21).
For L64W (input reads 34) the result was -1.95 (-3.70 -1.95 2.70).
For Y94D (input reads 818) the result was -3.22 (-3.32 -3.22 -2.58).
For D104P (input reads 18) the result was -2.23 (-1.19 -2.63 -2.23).
For K33D (input reads 55) the result was 3.03 (3.08 -2.61 3.03).
For Y30H (input reads 147) the result was -2.82 (-2.60 -2.82 -2.91).
For Y30N (input reads 164) the result was -2.33 (-3.60 -2.33 -1.48).
For F39Q (input reads 27) the result was 0.00 (-1.09 5.21 0.00).

The authors note that some positive scores may be noise, and some enriched variants failed when tested singly.
Some changes are missing from the data or left out.
Replicates agree only moderately (rank correlation about 0.4-0.65); scores from under about 50 input reads tend to be too high.